Results taken from patent US20140018288A1, “X-DING-CD4 Peptide” (priority 2012, published 2014).

System: human fetal astrocytes
Test: Cellular uptake of sX-DING-CD4 by human fetal astrocytes, confocal microscopy
Type: cell-based
Conditions: 100 ng/ml

B1: X-DING-CD4: native form of X-DING-CD4 protein purified from the extracellular compartment of HIV-1 resistant T-cells, about 40 kDa (protein, listed as Homo sapiens)
chain: MADINGGGATLPQPLYQTSGVLTAGFAPYIGVGSGKGKLAFLNNDYSQFGTGTKNVHWAGSDSKLTSTELSTYASTKQAAWGKLIQVPSVATSVAIPFNKAGSNAVDLSVDQLCGVFSGRITTWNQLPATGRTGNIVVVYRNEASGTTELFTRFLTAKCVNESKKFVVTTNFADSFGVPAGAVPAVTSQGVMTKLNAGDGRITYMSPDYAAPTLAGLDDATKVAKVAGVSPAPDNVSAAIAAVPVPAAANVALQNAWVPVFAAAADANDPSVVPYPSTGFPILGFTNLIFSQ
cellular localization of X-DING-CD4 after exposure (30 minutes): could be detected on cell membranes | cellular localization of X-DING-CD4 after exposure (6 hours): could be detected on cell membrane, in cytosol, and in nucleus
